Laboratory results from patent publication US9683231B2, “RNAi-based method of drug screening and characterization” (Massachusetts Institute of Technology, priority 2010, dated 2017).

Test system: Eμ-Mycp19^Arf−/− mouse lymphoma cells
Experiment: Drug treatment and FACS viability (propidium iodide) to determine LD80-90
Format: cell-based

O=P1(N(CCCl)CCCl)NC(SCCS(=O)(=O)O)CCO1 (stereo not shown) [Maphosphamide]
Concentration used (LD80-90): 6.9 µM
